Values from PubChem BioAssay AID504761 (Drosophila RNAi Screening Center, 2011)

Screen: 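Genome-wide fly cell screen for genes dengue virus requires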 (primary screen)
Cell system: D.Mel-2 cells from Drosophila
Reagents: long dsRNA against Drosophila genes
Challenge: infection with dengue virus type 2; dose and infection time not stated
Measured: 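Per well on two replicate plates, imaging gave the percent of cells positive for viral envelope protein, ranked by infection, and a nuclear count of cells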
Scale: infection score: higher = more virus-infected cells; cell count: higher = more cells in the well
Active means: 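Low infection ranks in the two replicates (chance level up to 0.065) followed by a retest with a 1.5-fold or larger significant decrease, p below 0.05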
Meaning of the calls: active = confirmed: knock-down lowers infection; inactive = not picked or not confirmed
The screen tested about 22,000 reagents; this is a random part of those with a known target gene and a result. In the full data, 116 (0.52%) are marked active. 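Calls depend on retest data that are not deposited; infection was ranked per plate without normalising between plates; the unit of the infection score is not given.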 Raw values vary from plate to plate and are shown uncorrected. Unmarked entries are inactive. Names joined by + are all predicted targets of the reagent. Not all columns of the deposit are shown. No sequences are given here. The record does not give: the amount of reagent, the time to read-out.

Gene | DRSC id | infection score, replicate 1 | infection score, replicate 2 | cell count, replicate 1
CG32483 | DRSC07902 | 1.01 | 3.58 | 6364
CG15408 | DRSC00423 | 3.75 | 7.11 | 6856
CG13738 | DRSC10065 | 1.69 | 10.3 | 5734
CG13738 | DRSC23534 | 8.01 | 2.86 | 5603
CG4045 | DRSC18518 | 6.79 | 9.83 | 471
fau | DRSC12816 | 0.68 | 0.4 | 6351
fau | DRSC12817 | 2.09 | 0.32 | 6073
fau | DRSC16943 | 30.7 | 15.4 | 4344
fau | DRSC16944 | 2.17 | 2.99 | 6537
fau | DRSC16945 | 1.53 | 3.67 | 6402
fau | DRSC22360 | 1.78 | 1.76 | 6451
fau | DRSC27672 | 9.8 | 7.16 | 6237
Atg4a (Autophagy-related 4a) | DRSC00656 | 4.47 | 2 | 6471
Atg4a (Autophagy-related 4a) | DRSC28580 | – | – | 411
Sox100B | DRSC15090 | 6.24 | 6.7 | 6538
Sox100B | DRSC23485 | 4.26 | 1.74 | 6341
CG11226 | DRSC11639 | 8.03 | 2.89 | 6465
yellow-d2 | DRSC04591 | 2.99 | 1.96 | 6530
CG15841 (retired record) + Acp33A | DRSC01859 | 4.18 | 6.15 | 6270
ng1 (new glue 1) | DRSC18802 | 4.42 | 7.79 | 6465
hll (heimdall) | DRSC01944 | 18.5 | 13.5 | 6144

Continued, starting with the last 3 of the part before.
Gene | DRSC id | infection score, replicate 1 | infection score, replicate 2 | cell count, replicate 1
CG15841 (retired record) + Acp33A | DRSC01859 | 4.18 | 6.15 | 6270
ng1 (new glue 1) | DRSC18802 | 4.42 | 7.79 | 6465
hll (heimdall) | DRSC01944 | 18.5 | 13.5 | 6144
Prp16 (pre-mRNA processing factor 16) | DRSC19538 | 18.5 | 12.1 | 4558
Prp16 (pre-mRNA processing factor 16) | DRSC19542 | 10.2 | 14.9 | 4658
Adgf-B (Adenosine deaminase-related growth factor B) | DRSC10568 | 3.74 | 19.4 | 6410
Adgf-B (Adenosine deaminase-related growth factor B) | DRSC24118 | 2.07 | 2.75 | 6246
CG9876 | DRSC04586 | 7.47 | 7.87 | 6186
Cyp40 (Cyclophilin 40) | DRSC10980 | 10.2 | 1.74 | 6486
Cyp40 (Cyclophilin 40) | DRSC29553 | 17.9 | 5.32 | 5250
Cyp6a17 (Cytochrome P450 6a17) | DRSC07378 | 24 | 29.2 | 5868
CG7203 | DRSC03026 | 6.72 | 7.56 | 6338
CG7203 | DRSC25657 | 2.82 | 4.47 | 6674
Chpf (Chondroitin polymerizing factor) | DRSC19491 | 1.22 | 1.58 | 6498
Chpf (Chondroitin polymerizing factor) | DRSC19893 | 2.87 | 3.74 | 6545
CCT6 (Chaperonin containing TCP1 subunit 6) | DRSC20095 | 5.92 | 3.03 | 4832
